Values quoted from earlier work in US20020018777A1, “STERILIZATION OF VIRUS INFECTED PLASMA” (priority 1995, published 2002).

System: hepatitis B virus
Settings: treatment with TNBP

Question: For `CCCCOP(=O)(OCCCC)OCCCC`, which “hepatitis B virus inactivated” value is on record?
Answer: The value was 10^6 infectious doses (ID50).
